Test results as given in paper PMC4764553, “Human cytomegalovirus IE1 protein alters the higher-order chromatin structure by targeting the acidic patch of the nucleosome” (eLife, 2016).

Tested on: LANA N-terminal CTD peptide;human histone octamer H2A E56R (Kaposi's sarcoma-associated herpesvirus;Homo sapiens)
Assay: ITC

## 147-bp Widom 601 (human NCP)
  Kd: 23.4 µM
